Measured values from several laboratories, pooled; numbers as filed in NIAID ChemDB.

Common to all: toxicity to cultured cells; cell line: VERO; measure: CC50

CCn is the concentration with n% toxicity to the cells. Lines come from different laboratories, so protocols vary.

COc1cc(-c2nc(N)nc(N)n2)ccc1OCc1ccc(F)cc1 ; method: MTT ; value: 360 µM
O=C(Cc1nn(Cc2ccc(Br)cc2F)c(=O)c2ccccc12)N/N=C/c1cccc(Br)c1 ; method: MTT ; value: >114.9 µM
CCC(=O)O[C@H]1C[C@H](n2cc(/C=C/Br)c(=O)[nH]c2=O)O[C@@H]1COP1(=O)OCc2cccc(C)c2O1 ; value: >64 µg/mL
CN1C[C@H](c2ccccc2)[C@]2(CC3C=CC=CC3C2=O)[C@]12C(=O)c1cccc3cccc2c13 ; method: MTT ; value: >62.5 µg/mL
COc1cc(OC)c(NC(=O)NNC(=O)C(=O)NC2CC2)cc1Cl ; value: >100 µg/mL
CCn1cc(C(=O)O)c(=O)c2cc(F)c(N3CCN(C(=O)C4NC(=O)NC(=O)C4[N+](=O)[O-])CC3)cc21 ; method: MTT ; value: 123.9 µM
CC(Oc1ccc(-c2nc(N)nc(N)n2)cc1)C1CCCC1 ; method: MTT ; value: 405 µM
C/C(=N\NC(=O)Cc1nn(Cc2ccc(Br)cc2F)c(=O)c2ccccc12)c1ccc(C)cc1 ; method: MTT ; value: >126.7 µM
COc1cc(O)c(CC=C(C)C)c2c1C(=O)CC(c1ccc(O)cc1)O2 ; value: 62 µg/mL
Nc1ncnc2c1ncn2[C@H]1OC[C@@](F)(C=CP(=O)(O)O)[C@H]1F ; method: MTT ; value: >100 µM
O=C(OCc1ccccc1)c1coc(-c2ccccc2)n1 ; method: MTS / absorbance ; value: >128 µM
CCCCCCCCCC(=O)O[C@H]1C[C@H](n2cc(/C=C/Br)c(=O)[nH]c2=O)O[C@@H]1COP1(=O)OCc2cccc(C)c2O1 ; value: 14.2 µg/mL
CSc1ccc(COc2ccc(-c3nc(N)nc(N)n3)cc2)cc1 ; method: MTT ; value: 457 µM
Cc1cc2c(C(C)C)c(O)c(O)c(/C=N/O)c2c(O)c1-c1c(C)cc2c(C(C)C)c(O)c(O)c(/C=N/O)c2c1O ; value: 7.5 µM
CN1C[C@H](c2ccc(N3CCCCC3)cc2)[C@]2(CC3C=CC=CC3C2=O)[C@]12C(=O)c1cccc3cccc2c13 ; method: MTT ; value: >62.5 µg/mL
CC(C)(C)c1cccc(N2CC3CN(Cc4ccc([N+](=O)[O-])o4)CC3C2)c1 ; method: MTT ; value: >64 µg/mL
Nc1nc2c(ncn2[C@H]2OC[C@@](F)(C=CP(=O)(O)O)[C@H]2F)c(=O)[nH]1 ; method: MTT ; value: >100 µM
Cc1cccc2c1OP(=O)(OC[C@H]1O[C@@H](n3cc(/C=C/Br)c(=O)[nH]c3=O)C[C@@H]1OC(=O)[C@@H](C)N)OC2 ; value: 90 µg/mL
CCN1C[C@]2(COC)CC[C@H](O)[C@]34C1[C@@](O)([C@@H](OC)[C@H]23)[C@@]1(O)C[C@H](OC)C2C[C@@H]4[C@@H]1[C@H]2OC(C)=O ; value: 64 µg/mL
COc1ccc(-c2nc(N)nc(N)n2)cc1OCc1ccc(F)cc1 ; method: MTT ; value: 439 µM
CC(C)OC(=O)c1noc(/C=C/c2ccccc2)c1C(=O)c1ccccc1 ; value: 100.6 µM
Nc1nc(N)nc(-c2ccc(OCc3ccccc3)cc2)n1 ; method: MTT ; value: 464 µM
O=C1NC(=O)C([N+](=O)[O-])C(C(=O)Nc2ccc(Br)cn2)N1 ; method: MTT ; value: <174.5 µM
CCc1nc(N)nc(N)c1-c1ccc(Cl)cc1 ; method: MTT ; value: >62.5 µg/mL
COc1c(N2CCN(C(=O)C3NC(=O)NC(=O)C3[N+](=O)[O-])C(C)C2)c(F)cc2c(=O)c(C(=O)O)cn(C3CC3)c12 ; method: MTT ; value: >111.5 µM
CC(=O)Oc1c(OC(C)=O)c2c3c(c(-c4c(C)cc5c(C(C)C)c(OC(C)=O)c(OC(C)=O)c6c5c4OC6OC(C)=O)c(C)cc3c1C(C)C)OC2OC(C)=O ; value: 4.1 µM
CC(=O)O[C@H]1[C@@H](O)C[C@H](O[C@H]2[C@@H](O)C[C@H](O[C@H]3[C@@H](O)C[C@H](O[C@H]4CC[C@@]5(C)[C@H](CC[C@@H]6[C@@H]5CC[C@]5(C)[C@@H](C7=CC(=O)OC7)CC[C@]65O)C4)O[C@@H]3C)O[C@@H]2C)O[C@@H]1C ; method: MTT ; value: 10.55 µM
COc1ccc2c(c1)c1c(C)c3cnccc3c(C)c1n2CCCN1C(=O)c2ccccc2C1=O ; value: 1.28 µg/mL
C[C@H]1OC(O[C@H]2[C@@H](O)C[C@H](O[C@@]3(C)[C@@H](O)C[C@H](O[C@H]4CC[C@@]5(C)[C@H](CC[C@@H]6[C@@H]5C[C@@H](O)[C@]5(C)[C@@H](C7=CC(=O)OC7)CC[C@]65O)C4)O[C@@H]3C)O[C@@H]2C)C[C@H](O)[C@@H]1O ; method: MTT ; value: 5.57 µM
CCOC(=O)c1cc(-c2cccs2)on1 ; value: >128 µM
Cc1cn([C@H]2C[C@H](N=[N+]=[N-])[C@@H](CO)O2)c(=O)[nH]c1=O ; value: 23 µM
O=C1c2c(O)cccc2-c2nn(CCNCCO)c3ccc(NCCNCCO)c1c23 ; value: 3.43 µg/mL
Cc1c(-c2c(C)c(=O)c3c(C(C)C)c(=O)c(=O)c(C=O)c-3c2=O)c(O)c2c(C=O)c(O)c(O)c(C(C)C)c2c1O ; value: 0.87 µM
C[N+](C)(C)C(=O)Nc1nc(-c2ccccn2)cs1 ; method: luminescence ; value: 54 µM
Cc1ccc(C(=O)Nc2ccc(S(=O)(=O)O)c3cc(S(=O)(=O)O)cc(S(=O)(=O)O)c23)cc1NC(=O)c1cccc(NC(=O)Nc2cccc(C(=O)Nc3cc(C(=O)Nc4ccc(S(=O)(=O)O)c5cc(S(=O)(=O)O)cc(S(=O)(=O)O)c45)ccc3C)c2)c1 ; value: 80 µg/mL
Nc1nc(N)nc(-c2ccc(OCc3cccc(Cl)c3)cc2)n1 ; method: MTT ; value: 387 µM
O=C(Cc1nn(Cc2ccc(Br)cc2F)c(=O)c2ccccc12)N/N=C/c1cccc([N+](=O)[O-])c1 ; method: MTT ; value: >122.5 µM
CCN(CC)CCNc1ccc(CO)c2sc3ccccc3c(=O)c12 ; value: 5.7 µg/mL
CC(=O)c1csc(NC(=O)C2C3CC4CC(C3)CC2C4)n1 ; method: luminescence ; value: 82 µM
NCCc1ccc2oc3cc(=O)c4ccccc4c-3nc2c1 ; value: 2.6 µg/mL
COc1ccc(CCC(O)c2ccc(Oc3ccccc3)c(O)c2)cc1 ; method: MTT ; value: >300 µg/mL
Cc1c(CC(=O)O)ccc(O)c1O ; value: >128 µg/mL
CCN(CC)CCCN(C)Cc1c(-c2ccccc2)oc(-c2ccccc2)c1Cl.Cl.Cl ; value: 2 µg/mL
c1ccc(Nc2nc(-c3ccncn3)cs2)nc1 ; method: luminescence ; value: 37 µM
CCOC(=O)c1noc(/C=C/c2ccc(-c3ccccc3)cc2)c1C(=O)c1ccccc1 ; value: 111.5 µM
CCOC(=O)P(=O)(O)OCCOCn1cnc2c(=O)[nH]c(N)nc21 ; value: >2646 µM
OC(c1cc(C(F)(F)F)nc2c(Cl)cc(Cl)cc12)C1CCCCN1 ; value: 34.2 µg/mL
Nc1nccc2c1ncn2[C@@H]1C[C@H](CO)[C@@H](O)[C@H]1O ; value: 0.33 µg/mL
C/C(=N/NC(=S)N1CCC(C)CC1)c1nccnc1C ; value: 0.57 µg/mL
Nc1ncnc2c1ncn2[C@@H]1C=C[C@@H](O)[C@H]1O ; value: 1.1 µg/mL
CCN(CCO)CCNc1ccc(CO)c2sc3cc(Cl)ccc3c(=O)c12 ; value: 1.53 µg/mL
Cc1cccc2c1OP(=O)(OC[C@H]1O[C@@H](n3cc(/C=C/Br)c(=O)[nH]c3=O)C[C@@H]1OC(=O)[C@H](N)Cc1ccccc1)OC2 ; value: >128 µg/mL
Cc1cccc(C)c1Nc1cc(-c2ccccn2)ncn1 ; method: luminescence ; value: 57 µM
O=Nc1c(-c2ccccc2)nc2ccccn12 ; value: 3.5 µg/mL
O=c1nc(N2CCN(CC3CCCCC3)CC2)sc2c([N+](=O)[O-])cc(C(F)(F)F)cc12 ; method: MTT ; value: 6.2 µg/mL
Nc1nc(N)nc(-c2ccc(OCc3ccccc3Cl)cc2)n1 ; method: MTT ; value: 387 µM
O=C(Cc1nn(Cc2ccc(Br)cc2F)c(=O)c2ccccc12)N/N=C/c1cccc(F)c1 ; method: MTT ; value: >129.3 µM
O=C1c2cscc2C(=O)c2cscc21 ; value: >10 µg/mL
Nc1ccn([C@@H]2C=C(CO)[C@@H](O)[C@@H]2O)c(=O)n1 ; value: 320 µg/mL
Fc1cccc(F)c1Nc1nc(-c2ccccn2)cs1 ; method: luminescence ; value: 4 µM
Nc1ncnc2c1ncn2CCOCP(=O)(O)O ; method: MTT ; value: >100 µM
CCN(CC)CCNc1ccc(COC(=O)NC)c2sc3ccccc3c(=O)c12 ; value: 0.85 µg/mL
O=C(C=Cc1ccc(O)c(O)c1)O[C@@H]1C[C@](O)(C(=O)O)C[C@@H](O)[C@H]1O ; value: >512 µg/mL
COc1cc2c(oc(=O)c3cc(C)cc(OC)c32)c2c(C3OC(C)C(O)C(C)(O)C3O)ccc(O)c12 ; value: 1.24 µg/mL
Cc1ccc(CCC(=O)c2ccc(Oc3ccccc3)c(O)c2)cc1 ; method: MTT ; value: >300 µg/mL
C/C(=N\NC(=O)Cc1nn(Cc2ccc(Br)cc2F)c(=O)c2ccccc12)c1ccc(Br)cc1 ; method: MTT ; value: 111.9 µM
CCOC(=O)c1noc(/C=C/c2cccc(Cl)c2)c1C(=O)c1ccccc1 ; value: 108.4 µM
Cc1cccc(C)c1Nc1nnc(-c2ccccn2)o1 ; method: luminescence ; value: >100 µM
O=C(CCc1ccco1)c1ccc(Oc2ccccc2)c(O)c1 ; method: MTT ; value: >300 µg/mL
O=C[C@@H](CO)O[C@H](C=O)n1ccc(=O)[nH]c1=O ; value: 250 µg/mL
CO[C@H]1/C=C/O[C@@]2(C)Oc3c(C)c(O)c4c(O)c(c(/C=N/N5CCCCCCCCCCCC5)c(O)c4c3C2=O)NC(=O)/C(C)=C\C=C\[C@H](C)[C@H](O)[C@@H](C)[C@@H](O)[C@@H](C)[C@H](OC(C)=O)[C@@H]1C ; value: 8.67 µg/mL
CC(Oc1ccc(-c2nc(N)nc(N)n2)cc1)c1ccc(Cl)cc1 ; method: MTT ; value: 354 µM
Cc1cc2c(C(C)C)c(O)c(O)c(C=Nc3ccc(C(=O)O)cc3)c2c(O)c1-c1c(C)cc2c(C(C)C)c(O)c(O)c(C=Nc3ccc(C(=O)O)cc3)c2c1O ; value: 13.5 µM
Nc1ccccc1Nc1c([N+](=O)[O-])cc(C(F)(F)F)cc1[N+](=O)[O-] ; value: 36 µg/mL
C[C@]12CC[C@H](O)C[C@H]1CC[C@@H]1[C@@H]2C[C@@H](O)[C@]2(C)[C@@H](C3=CC(=O)OC3)CC[C@]12O ; method: MTT ; value: >250 µM
O=C(Cc1nn(Cc2ccc(Br)cc2F)c(=O)c2ccccc12)N/N=C/c1ccccc1C(F)(F)F ; method: MTT ; value: 117.2 µM
CC(=O)CCC(=O)O[C@H]1C[C@H](n2cc(/C=C/Br)c(=O)[nH]c2=O)O[C@@H]1COP1(=O)OCc2ccccc2O1 ; value: >128 µg/mL
Cc1cc2c(C(C)C)c(O)c(O)c(C=NCCS(=O)(=O)O)c2c(O)c1-c1c(C)cc2c(C(C)C)c(O)c(O)c(C=NCCS(=O)(=O)O)c2c1O ; value: 37.5 µM
O=c1[nH]c(=O)n([C@H]2C[C@H](O)[C@@H](COP3(=O)OCc4cc5ccccc5cc4O3)O2)cc1/C=C/Br ; value: 56.8 µg/mL
Cc1ccc(N2C(c3ccccc3)=CC(=C3C=CC(=O)C=C3)C=C2c2ccccc2)cc1 ; value: 13 µg/mL
C[C@H]1O[C@@H](O[C@H]2[C@@H](O)C[C@H](O[C@H]3CC[C@@]4(C)[C@H](CC[C@@H]5[C@@H]4CC[C@]4(C)[C@@H](C6=CC(=O)OC6)CC[C@]54O)C3)O[C@@H]2C)C[C@H](O)[C@@H]1O ; method: MTT ; value: 10.05 µM
CC(=O)OC[C@H]1O[C@@H](n2ncc(=O)[nH]c2=O)[C@H](OC(C)=O)[C@@H]1OC(C)=O ; method: neutral red ; value: 50 µg/mL
Cc1cc(/C=N/NC(N)=S)c(C)c2c1oc1ccccc12 ; value: 22.03 µg/mL
CCN1C[C@]2(COC)CC[C@H](OC)[C@]34C5CC6[C@H](OC)C5[C@](O)(C[C@@H]6OC)[C@@](O)(C13)[C@@H](OC)[C@H]24 ; value: 64 µg/mL
Oc1ccccc1-c1csc(Nc2ccccc2C(F)(F)F)n1 ; method: luminescence ; value: 20 µM
CC1OP(=O)(OC[C@H]2O[C@@H](n3cc(/C=C/Br)c(=O)[nH]c3=O)C[C@@H]2O)Oc2cccc(Cl)c21 ; value: 70.4 µg/mL
O=C(CCc1ccc(F)cc1)c1ccc(Oc2ccccc2)c(O)c1 ; method: MTT ; value: >300 µg/mL
COc1ccc2cc1Oc1ccc(cc1)CC1c3c(cc(OC)c4c3Oc3cc5c(cc3O4)CCNC5C2)CCN1C ; value: 1.45 µg/mL
Cc1ccc(COc2ccc(-c3nc(N)nc(N)n3)cc2)cc1 ; method: MTT ; value: 495 µM
Oc1cc(C(O)CCc2ccccc2)ccc1Oc1ccccc1 ; method: MTT ; value: >300 µg/mL